Experiment [1] concerns the target Human SARS Coronavirus Spike Protein (Receptor Binding Domain, His Tag) (Sino 40150-V08B2) (Human SARS Coronavirus, UniProt P59594 306-527). Put plainly: Luminex bead assay, supernatant on antigen microspheres.
For experiment [2] the target is unchanged. Briefly: Luminex bead binding, antigen on microspheres, antibody supernatant.
Experiment [3] concerns the target Human SARS Coronavirus Spike S1 Subunit Protein (His Tag) (Sino 40150-V08B1) (Human SARS Coronavirus, UniProt P59594 14-667). The experiment is described as above.

B1: mAb10933 (antibody, V domains shown)
VH: QVQLVESGGGLVKPGGSLRLSCAASGFTFSDYYMSWIRQAPGKGLEWVSYITYSGSTIYYADSVKGRFTISRDNAKSSLYLQMNSLRAEDTAVYYCARDRGTTMVPFDYWGQGTLVTVSS
VL: DIQMTQSPSSLSASVGDRVTITCQASQDITNYLNWYQQKPGKAPKLLIYAASNLETGVPSRFSGSGSGTDFTFTISGLQPEDIATYYCQQYDNLPLTFGGGTKVEIKR
Take B1: the “Binding signal (MFI)” value in experiment [1] is 31 MFI.

B2: mAb10987 (antibody, V domains shown)
VH: QVQLVESGGGVVQPGRSLRLSCAASGFTFSNYAMYWVRQAPGKGLEWVAVISYDGSNKYYADSVKGRFTISRDNSKNTLYLQMNSLRTEDTAVYYCASGSDYGDYLLVYWGQGTLVTVSS
VL: QSALTQPASVSGSPGQSITISCTGTSSDVGGYNYVSWYQQHPGKAPKLMIYDVSKRPSGVSNRFSGSKSGNTASLTISGLQSEDEADYYCNSLTSISTWVFGGGTKLTVLG
As for B2, in experiment [2], the MFI is 27 MFI.

B3: mAb10970 (antibody, V domains shown)
VH: EVQLVESGGGLVQPGGSLRLSCAASGFTVSSNYMSWVRQAPGKGLEWVSVIYSGGSTYYADSVKGRFTISRDNSKNTLYLQMNRLRADDTAVYYCVRDPVGRYYYGMDVWGQGTTVTVSS
VL: not shown
With B3, in experiment [3], the MFI was found to be 19 MFI.
